This test has as its system LASVpv.
Setting [1] is: supplementary Table 1, effects of R substitutions.
Setting [2] is: read-out: IC50, LASVpv infection, Vero cells, luciferase activity, Fig. 1A and text.

pIC50: −log10 of the molar value. Where two headings read alike, the source gives them in different places.

On to `C/C(=N\NC(=O)CCc1ccccc1)c1ccc(NC(=O)c2ccco2)cc1` [compound 3, O=C(CCC1=CC=CC=C1)N/N=C(C)/C2=CC=C(NC(C3=CC=CO3)=O)C=C2], for which, under setting [1], the pIC50 was 6.06.

`C/C(=N\NC(=O)Cc1ccccc1)c1ccc(NC(=O)c2ccco2)cc1` [compound 7, O=C(CC1=CC=CC=C1)N/N=C(C)/C2=CC=C(NC(C3=CC=CO3)=O)C=C2] had a pIC50 under setting [1] of 6.51.

The molecule `C/C(=N\NC(=O)Cc1ccc(Cl)cc1Cl)c1ccc(NC(=O)c2ccco2)cc1` [compound 8, O=C(CC1=C(Cl)C=C(Cl)C=C1)N/N=C(C)/C2=CC=C(NC(C3=CC=CO3)=O)C=C2] gave a pIC50 under setting [1] of 6.73.

With `C/C(=N\NC(=O)CCc1ccc(C)cc1)c1ccc(NC(=O)c2ccco2)cc1` [compound 9, O=C(CCC1=CC=C(C)C=C1)N/N=C(C)/C2=CC=C(NC(C3=CC=CO3)=O)C=C2], the pIC50 under setting [1] was 9.43.

As to `C/C(=N\NC(=O)CCc1ccccc1F)c1ccc(NC(=O)c2ccco2)cc1` [compound 10, O=C(CCC1=C(F)C=CC=C1)N/N=C(C)/C2=CC=C(NC(C3=CC=CO3)=O)C=C2], the pIC50 under setting [1] is 8.52.

`C/C(=N\NC(=O)CCc1ccccc1C)c1ccc(NC(=O)c2ccco2)cc1` [compound 20, O=C(CCC1=C(C)C=CC=C1)N/N=C(C)/C2=CC=C(NC(C3=CC=CO3)=O)C=C2] gave a pIC50 under setting [1] of 9.04.

In the case of `C/C(=N\NC(=O)CCc1cccc(C)c1)c1ccc(NC(=O)c2ccco2)cc1` [compound 21, O=C(CCC1=CC(C)=CC=C1)N/N=C(C)/C2=CC=C(NC(C3=CC=CO3)=O)C=C2], the pIC50 by setting is: under setting [2], > 9.70; under setting [1], 10.72.

For the molecule `COc1ccc(CCC(=O)N/N=C(\C)c2ccc(NC(=O)c3ccco3)cc2)cc1` [compound 22, O=C(CCC1=CC=C(OC)C=C1)N/N=C(C)/C2=CC=C(NC(C3=CC=CO3)=O)C=C2], under setting [1], the pIC50 is 10.30.

Regarding `C/C(=N\NC(=O)CCCc1ccc(C)cc1)c1ccc(NC(=O)c2ccco2)cc1` [compound 23, O=C(CCCC1=CC=C(C)C=C1)N/N=C(C)/C2=CC=C(NC(C3=CC=CO3)=O)C=C2], under setting [1], the pIC50 is 9.52.

The molecule `C/C(=N\NC(=O)CCc1ccc([N+](=O)[O-])cc1)c1ccc(NC(=O)c2ccco2)cc1` [compound 24, O=C(CCC1=CC=C([N+]([O-])=O)C=C1)N/N=C(C)/C2=CC=C(NC(C3=CC=CO3)=O)C=C2] had a negative-log IC50 (pIC50) under setting [1] of 7.00.

`C/C(=N\NC(=O)CCc1cccc([N+](=O)[O-])c1)c1ccc(NC(=O)c2ccco2)cc1` [compound 25, O=C(CCC1=CC([N+]([O-])=O)=CC=C1)N/N=C(C)/C2=CC=C(NC(C3=CC=CO3)=O)C=C2] had a pIC50 under setting [1] of 7.03.

As for `C/C(=N\NC(=O)CCc1ccc(F)cc1)c1ccc(NC(=O)c2ccco2)cc1` [compound 26, O=C(CCC1=CC=C(F)C=C1)N/N=C(C)/C2=CC=C(NC(C3=CC=CO3)=O)C=C2], the pIC50 under setting [1] was 8.72.

The molecule `C/C(=N\NC(=O)CCCCc1ccccc1)c1ccc(NC(=O)c2ccco2)cc1` [compound 27, O=C(CCCCC1=CC=CC=C1)N/N=C(C)/C2=CC=C(NC(C3=CC=CO3)=O)C=C2] gave a pIC50 under setting [1] of 8.77.

Take `COc1ccc(CCC(=O)N/N=C(\C)c2ccc(NC(=O)c3ccco3)cc2)c(OC)c1` [compound 28, O=C(CCC1=C(OC)C=C(OC)C=C1)N/N=C(C)/C2=CC=C(NC(C3=CC=CO3)=O)C=C2]: under setting [1], the negative-log IC50 (pIC50) was 7.03.

Turning to `C/C(=N\NC(=O)CCc1ccc(Br)cc1)c1ccc(NC(=O)c2ccco2)cc1` [compound 29, O=C(CCC1=CC=C(Br)C=C1)N/N=C(C)/C2=CC=C(NC(C3=CC=CO3)=O)C=C2], the pIC50 reads like this: under setting [2], > 9.70; under setting [1], 9.72.

`C/C(=N\NC(=O)CCc1ccccc1C(F)(F)F)c1ccc(NC(=O)c2ccco2)cc1` [compound 30, O=C(CCC1=C(C(F)(F)F)C=CC=C1)N/N=C(C)/C2=CC=C(NC(C3=CC=CO3)=O)C=C2] gave a pIC50 under setting [1] of 8.57.

In the case of `COc1ccc(CC(=O)N/N=C(\C)c2ccc(NC(=O)c3ccco3)cc2)cc1` [compound 54, O=C(CC1=CC=C(OC)C=C1)N/N=C(C)/C2=CC=C(NC(C3=CC=CO3)=O)C=C2], the pIC50 under setting [1] is 6.70.

Molecule `C/C(=N\NC(=O)CCCc1ccccc1)c1ccc(NC(=O)c2ccco2)cc1` [compound 56, O=C(CCCC1=CC=CC=C1)N/N=C(C)/C2=CC=C(NC(C3=CC=CO3)=O)C=C2] gave a negative-log IC50 (pIC50) under setting [1] of 6.58.

Take `C/C(=N\NC(=O)CCc1ccc(C(C)(C)C)cc1)c1ccc(NC(=O)c2ccco2)cc1` [compound 57, O=C(CCC1=CC=C(C(C)(C)C)C=C1)N/N=C(C)/C2=CC=C(NC(C3=CC=CO3)=O)C=C2]: the pIC50 runs as follows: under setting [2], > 9.70; under setting [1], > 12.00.

Broadly, the pIC50 is the negative decadic logarithm of the IC50, by convention in mol/L.

Values taken from article PMC6340895 (Protein & Cell, 2019).
